Measured values from several laboratories, pooled; numbers as filed in NIAID ChemDB.

Shared fields: tests in culture; agent: Plasmodium falciparum; measure: EC50

Rows are shuffled and stem from different studies. Blank or dashed fields: not listed here. ECn is the concentration giving n% inhibition of infection, replication or growth.

| smiles | strain or isolate | changes | read by | value |
|---|---|---|---|---|
| CCc1ccc(Nc2nc(NCCCCNc3ccnc4cc(Cl)ccc34)nc(N3CCOCC3)n2)cc1 | D6 | - | - | 0.39 µM |
| O=C(CCCNc1ccnc2cc(Cl)ccc12)N[C@H]1C(=O)N(C2CCCCCC2)[C@H]1/C=C/c1ccccc1 | W2 | Chloroquine-resistant | flow cytometry | 0.2758 µM |
| CC(C)CCC[C@@H]1C[C@@H]2CCC[C@@H]3C[C@H](CCCC(C)C)NC(=N1)N32 | D6 | - | LDH | 1.52 µM |
| C[C@H]1Cc2c([nH]c3cc(F)c(F)cc23)[C@@]2(N1)C(=O)Nc1ccc(Cl)cc12 | GNF-Pf4492R-1 | GNF-Pf4492-resistant A211T | SYBR Green / fluorescence | 0.0000473 µM |
| NC1=Nc2ccc(I)cc2C1(O)c1ccccc1 | 3D7 | - | - | 0.289 µM |
| CC(C)CN1C(=O)[C@H](NC(=O)CCCCCNc2ccnc3cc(Cl)ccc23)[C@@H]1/C=C/c1ccccc1 | W2 | Chloroquine-resistant | flow cytometry | 0.3551 µM |
| CC(C)=CCC[C@@H]1C[C@@H]2CCC[C@@H]3C[C@H](CCC=C(C)C)NC(=N1)N32 | W2 | - | LDH | 2.18 µM |
| Fc1ccc(Nc2nc(NCCNc3ccnc4cc(Cl)ccc34)nc(N3CCOCC3)n2)cc1 | W2 | - | - | 0.48 µM |
| Cc1[nH]nc2c1C(c1cc(Cl)cc(C(F)(F)F)c1)(C(C)C)C(C#N)=C(N)O2 | NF54 | - | radiometric | 0.49 µM |
| NC1=Nc2ccc(Cl)cc2C1(O)c1ccccc1 | 3D7 | - | - | 0.216 µM |
| Cc1[nH]nc2c1C(c1cc(Br)cc(C#N)c1)(C(C)C)C(C#N)=C(N)O2 | NF54 | - | radiometric | 0.65 µM |
| NC1=Nc2ccc(Cl)cc2[C@@]1(O)c1ccccc1 | 3D7 | - | - | 0.665 µM |
| C[C@H]1CCc2c([nH]c3ccccc23)[C@@]2(N1)C(=O)Nc1ccc(Cl)cc12 | KAE678R-2 | KAE678-resistant (A184S/P990R) | SYBR Green / fluorescence | 0.227 µM |
| C#CCCC1CC2CCCC3CC(C)NC(=N1)N23 | D6 | - | LDH | 17.14 µM |
| Cn1nc(C(F)(F)F)c(-c2ccc(Br)cc2)c1NC(=O)Nc1ccc(F)cc1F | KAE609R-2 | KAE609-resistant (T418N/P990R) | SYBR Green / fluorescence | 0.613 µM |
| O=C(Nc1cc(C(F)(F)F)ccc1-n1cncn1)C1(c2ccccc2)CC1 | HB3 | - | - | 0.164 µM |
| Cc1[nH]nc2c1C(c1cc(Cl)cc(C#N)c1)(C1CCC1)C(C#N)=C(N)O2 | NF54 | - | radiometric | >2.66 µM |
| Cc1cccc(CCC2CC3CCCC4CC(C)NC(=N2)N34)c1 | W2 | - | LDH | 7.71 µM |
| COc1ccc(Nc2nc(NCCCCNc3ccnc4cc(Cl)ccc34)nc(N3CCOCC3)n2)cc1 | W2 | - | - | 0.71 µM |
| Cc1ccccc1C1(O)C(N)=Nc2ccccc21 | 3D7 | - | - | 0.112 µM |
| O=C(CCCCCNc1ccnc2cc(Cl)ccc12)N[C@H]1C(=O)N(C2CCCCC2)[C@H]1/C=C/c1ccccc1 | W2 | Chloroquine-resistant | flow cytometry | 0.1867 µM |
| COc1ccc(C2(O)C(N)=Nc3ccc(F)cc32)cc1 | Dd2 | - | - | 0.359 µM |
| COC(=O)c1ccc(-c2cc(C#N)cc(C3(C4(F)COC4)C(C#N)=C(N)Oc4n[nH]c(C)c43)c2)s1 | NF54 | - | radiometric | 0.22 µM |
| Cc1ccc(N2C(=O)[C@H](NC(=O)CCNc3ccnc4cc(Cl)ccc34)[C@@H]2/C=C/c2ccccc2)cc1 | W2 | Chloroquine-resistant | flow cytometry | 0.1125 µM |
| Cc1[nH]nc2c1C(c1cc(Cl)cc(Cl)c1)(C(C)C)C(C#N)=C(N)O2 | NF54 | - | radiometric | 2.02 µM |
| COc1cc2c(NC3CCN(C)CC3)nc(N3CCCN(C)CC3)nc2cc1OCc1ccccc1 | 7G8 | - | fluorescence | 0.049 µM |
| O=C(Nc1cc(C(F)(F)F)ccc1-n1cncn1)C1(c2cccc(C(F)(F)F)c2)CC1 | FCR3 | - | - | 0.007 µM |
| c1ccc(CC[C@@H]2C[C@@H]3CC[C@@H]4C[C@H](CCc5ccccc5)NC(=N2)N43)cc1 | D6 | - | LDH | 6.16 µM |
| COc1ccc(Nc2nc(NCCCNc3ccnc4cc(Cl)ccc34)nc(N3CCOCC3)n2)cc1 | D6 | - | - | 0.16 µM |
| Cc1[nH]nc2c1C(c1cc(C#N)cc(-c3ccc(C(=O)O)s3)c1)(C(C)C)C(C#N)=C(N)O2 | K1 | - | radiometric | 1.06 µM |

A second listing of 4 rows from above:

smiles	strain or isolate	changes	read by	value
COc1ccc(C2(O)C(N)=Nc3ccc(F)cc32)cc1	Dd2	-	-	0.359 µM
COc1cc2c(NC3CCN(C)CC3)nc(N3CCCN(C)CC3)nc2cc1OCc1ccccc1	7G8	-	fluorescence	0.049 µM
COC(=O)c1ccc(-c2cc(C#N)cc(C3(C4(F)COC4)C(C#N)=C(N)Oc4n[nH]c(C)c43)c2)s1	NF54	-	radiometric	0.22 µM
c1ccc(CC[C@@H]2C[C@@H]3CC[C@@H]4C[C@H](CCc5ccccc5)NC(=N2)N43)cc1	D6	-	LDH	6.16 µM